Positions count from the first letter of the chain named.
B1: MtbGyrase with MtbGyrAP353L (protein)
chain 1: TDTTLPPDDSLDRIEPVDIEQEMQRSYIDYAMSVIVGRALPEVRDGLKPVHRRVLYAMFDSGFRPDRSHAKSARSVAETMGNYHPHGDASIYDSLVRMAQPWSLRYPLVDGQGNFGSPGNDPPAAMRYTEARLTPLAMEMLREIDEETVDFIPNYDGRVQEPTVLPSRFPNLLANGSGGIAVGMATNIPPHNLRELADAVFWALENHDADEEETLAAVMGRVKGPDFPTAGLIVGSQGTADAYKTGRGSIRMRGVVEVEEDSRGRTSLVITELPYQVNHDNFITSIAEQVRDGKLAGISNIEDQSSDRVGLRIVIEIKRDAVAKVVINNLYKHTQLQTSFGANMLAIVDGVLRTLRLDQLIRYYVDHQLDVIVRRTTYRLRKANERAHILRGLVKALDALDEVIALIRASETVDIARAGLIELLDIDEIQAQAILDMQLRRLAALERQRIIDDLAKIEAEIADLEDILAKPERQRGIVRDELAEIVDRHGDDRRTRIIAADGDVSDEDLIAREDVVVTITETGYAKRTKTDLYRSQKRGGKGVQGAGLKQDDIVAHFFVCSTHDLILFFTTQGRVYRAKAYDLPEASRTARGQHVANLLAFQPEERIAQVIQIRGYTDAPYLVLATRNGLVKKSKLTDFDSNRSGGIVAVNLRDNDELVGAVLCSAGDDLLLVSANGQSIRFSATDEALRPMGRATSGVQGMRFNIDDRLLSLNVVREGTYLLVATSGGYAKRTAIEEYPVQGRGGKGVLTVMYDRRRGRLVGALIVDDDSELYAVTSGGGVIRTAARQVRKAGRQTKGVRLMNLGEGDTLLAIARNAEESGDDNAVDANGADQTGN
chain 2: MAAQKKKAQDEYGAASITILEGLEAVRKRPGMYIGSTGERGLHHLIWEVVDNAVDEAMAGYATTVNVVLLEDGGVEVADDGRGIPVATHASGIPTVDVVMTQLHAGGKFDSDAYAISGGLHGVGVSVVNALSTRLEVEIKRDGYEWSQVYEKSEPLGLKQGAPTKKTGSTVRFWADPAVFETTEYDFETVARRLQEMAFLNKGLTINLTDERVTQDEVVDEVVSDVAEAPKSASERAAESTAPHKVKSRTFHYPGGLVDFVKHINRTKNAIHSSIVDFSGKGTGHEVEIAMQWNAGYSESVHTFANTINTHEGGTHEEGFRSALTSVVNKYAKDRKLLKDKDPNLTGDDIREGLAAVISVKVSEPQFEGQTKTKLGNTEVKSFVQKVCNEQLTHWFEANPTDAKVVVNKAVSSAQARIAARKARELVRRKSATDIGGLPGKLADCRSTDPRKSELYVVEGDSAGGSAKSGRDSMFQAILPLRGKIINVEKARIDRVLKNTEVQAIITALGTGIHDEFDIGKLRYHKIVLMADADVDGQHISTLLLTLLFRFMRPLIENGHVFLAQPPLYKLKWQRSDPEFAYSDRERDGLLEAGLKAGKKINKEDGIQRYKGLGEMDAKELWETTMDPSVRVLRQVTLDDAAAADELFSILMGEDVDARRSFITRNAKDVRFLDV
B2: MtbGyrase with MtbGyrAA32V (protein)
chain 1: B1 chain 1 with A31V, L352P
chain 2: B1 chain 2

Biological target: the compound of Formula IV

Row | Protein | resistance to compound-induced cleavage
1 | B1 | showed relatively strong resistance against the compound of Formula IV
2 | B2 | showed relatively strong resistance against the compound of Formula IV
